Data reported in PubChem BioAssay AID504862 (Sanford-Burnham Center for Chemical Genomics, 2011).
Only a part is listed here, and it is no random draw. Calls of active or inactive are those of the source.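 The calls were made as follows: active = average inhibition reaching 50% or more with the compound at 20 µM; inactive = the rest.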

System: diaphorase (Clostridium kluyveri)
Test: C. kluyveri diaphorase inhibition, resazurin coupling – biochemical, fluorescence intensity, 10 µM NADPH, counter-screen for P. falciparum G6PD inhibitor project, confirmation (AID 504862);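 also: resorufin red fluorescence formed as diaphorase reduces resazurin using NADPH; 0% = DMSO with enzyme and 100% = DMSO without enzyme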
Settings: diaphorase-coupled resazurin reduction, NADPH 10 uM, at 20 µM, active compounds read high

Q: For `O=[N+]([O-])c1cc([N+](=O)[O-])c(Nc2ccccn2)c([N+](=O)[O-])c1`, which inhibition is on record?
A: The inhibition was active: 50.5%.
